Pooled drug test results. Numbers come from NIAID ChemDB, via PubChem.

Common to all: cytotoxicity tests; cell line: MT-4; read-out: CC50

An empty or dashed field is not shown.

SMILES | read by | result
CCc1c(Cc2cc(C)cc(C)c2)n(COCC#Cc2cc(C(F)(F)F)cc(C(F)(F)F)c2)c(=O)[nH]c1=O | MTT | 70 µM
CCOC(=O)c1cccn1S(=O)(=O)c1cccc(N)c1 |  | >200 µM
COc1ccccc1NC(=O)Nc1nc(/C=C/c2cc(OC)c(OC)c(OC)c2)nc2ccccc12 | MTT | 2.03 µg/mL
O=C(COc1cccnc1-c1cccc2ccccc12)Nc1ccc(C(F)(F)F)cc1 | MTT / absorbance | 11.7 µM
C(=N\Nc1nc(-c2ccccc2)cs1)/c1ccco1 | MTT | 11.3 µM
CCc1c(Cc2ccccc2C)n(COCC#CC2c3ccccc3-c3ccccc32)c(=O)[nH]c1=O | MTT | 50 µM
CCOC(=O)CNc1nc(Nc2ccc(OCC)cc2)nc(Oc2cc(=O)oc3ccccc23)n1 | MTT | 62.13 µg/mL
N#Cc1ccc(-c2csc(N/N=C/c3ccccn3)n2)cc1 | MTT | 1.71 µM
CCOC(=O)c1cccn1S(=O)(=O)c1cccc(NC(C)=O)c1 |  | >200 µM
Cc1ccnc2c1NC(=O)c1cccnc1N2C1CC1 | MTT | >4 µg/mL
COc1cc(OCc2nc3ccccc3n3cccc23)cc(OC)c1OC | MTT | 55 µM
C/C(=N\Nc1nc(-c2ccc([N+](=O)[O-])cc2)cs1)c1ccc(-n2ccnc2)cc1 | MTT | 38.9 µM
Fc1ccc(NC(=S)NCc2ccco2)cc1Cl | MTT | 35.8 µM
O=C(O)CCC(NC(=O)c1ccc(OCc2nc3cc(C(F)(F)F)ccc3n3cccc23)cc1)C(=O)O | MTT | >100 µM
COc1cc(/C=C/c2nc(NC(=O)Nc3ccc(C)cc3)c3ccccc3n2)cc(OC)c1OC | MTT | 2.75 µg/mL
Cc1cc(/C=C/C#N)cc(C)c1Oc1ccnc(S(=O)(=O)CC(=O)NCc2ccc(Br)cc2)n1 | MTT | 3.37 µM
CCOC(=O)CNc1nc(Nc2ccccc2)nc(Oc2cc(=O)oc3ccccc23)n1 | MTT | 61.15 µg/mL
CCc1c(Cc2cc(C)cc(C)c2)n(COCC#Cc2ccc(C=O)cc2)c(=O)[nH]c1=O | MTT | 45 µM
S=C(Nc1ccc(I)cc1)NC1CCN(Cc2ccccc2)CC1 | MTT | 7 µM
O=C(CCCO)N1C[C@@H](O)[C@@H](Cc2ccccc2)N(Cc2ccc(O)cc2)C(=O)N1Cc1ccc(O)cc1 |  | >100 µM
CCc1c(Cc2cc(C)cc(C)c2)n(COCC#CC#CCO[Si](c2ccccc2)(c2ccccc2)C(C)(C)C)c(=O)[nH]c1=O | MTT | 76 µM
CCc1c(Cc2cc(C)cc(C)c2)n(Cc2ccc(C#CCO)cc2)c(=O)[nH]c1=O | MTT | 2 µM
Cc1ccc(-c2ncccc2OCC(=O)Nc2ccc(S(N)(=O)=O)cc2)cc1 | MTT / absorbance | ≤249 µM
Oc1ccccc1/C=N/Nc1nc(-c2ccc(Br)cc2)cs1 | MTT | 48.7 µM
C/C=C1\C(=O)NC(=O)N1[C@H]1C[C@H](N=[N+]=[N-])[C@@H](CO)O1 |  | ~100 µM
CCCN1C(=O)N(CCC)N(C(=O)C(C)(C)C)C[C@@H](O)[C@H]1Cc1ccccc1 |  | 63 µM
[N-]=[N+]=N[C@H]1C[C@@H](N2C(=O)NC(=O)/C2=C/c2ccccc2)O[C@@H]1CO |  | ~100 µM
Brc1ccc(-c2csc(N/N=C/c3ccncc3)n2)cc1 | MTT | 125 µM
O=C(O)c1ccc(OCc2nc3cc(C(F)(F)F)ccc3n3cccc23)cc1 | MTT | >100 µM
S=C(NCc1ccco1)Nc1ccccc1Cl | MTT | ≥100 µM
Cc1ccnc2c1NC(=O)c1cccnc1N2C1CC1 | MTT | >4 µM
COc1cccc2c1nc(-c1ccccc1F)n2Cc1ccc(C(C)(C)C)cc1 |  | 2.5 µg/mL
CCOC(=O)CCC(NC(=O)c1ccc(OCc2nc3cc(C(F)(F)F)ccc3n3cccc23)cc1)C(=O)OCC | MTT | 68 µM
Cc1cc(/C=C/C#N)cc(C)c1Oc1ccnc(S(=O)(=O)CC(=O)NCCc2ccc(Br)cc2)n1 | MTT | 39.23 µM
C#CCOCn1c(Cc2ccccc2)c(CF)c(=O)[nH]c1=O | MTT | >100 µM
COc1cccc2c1nc(-c1ccccc1F)n2Cc1ccccc1F |  | 20.6 µg/mL
CCC(C)C(NC(=O)C(N)CO)C(=O)NC(C)C(=O)NC(CCC(=O)O)C(=O)Nc1cccc(O)c1 |  | 10 µM
O=C(CO)N1C[C@@H](O)[C@@H](Cc2ccccc2)N(Cc2ccc(O)cc2)C(=O)N1Cc1ccc(O)cc1 |  | 71.6 µM
Fc1cccc(NC(=S)NC2CCN(Cc3ccccc3)CC2)c1 | MTT | 32 µM
O=C(O)c1ccc(Nc2nc3cc(C(F)(F)F)ccc3n3cccc23)cc1 | MTT | 15 µM
CCC(C)C(NC(=O)C(N)CO)C(=O)NC(C)C(=O)N[C@]12NC(=O)[C@]3(O)C4C5C(C41)[C@H]1C[C@@H]5C3C12 |  | 0.5 µM
Cc1cc(-c2ccc(C#N)cc2)cc(C)c1Oc1ccnc(S(=O)(=O)CC(=O)NCCc2ccc(Br)cc2)n1 | MTT | 8.44 µM
COc1cccc2c1nc(-c1ccccc1F)n2Cc1c(F)ccc(F)c1F |  | 14.5 µg/mL
Cc1ccc(NC(=O)COc2cccnc2-c2cccc3ccccc23)c([N+](=O)[O-])c1 | MTT / absorbance | 19.3 µM
CCOC(=O)c1cccn1S(=O)(=O)c1cc(Cl)ccc1NC=O |  | >200 µM
CCOC(=O)CNc1nc(NC(=O)Nc2ccc(Cl)cc2)nc(Oc2cc(=O)oc3ccccc23)n1 | MTT | >125 µg/mL
Cc1cc(-c2ccc(C#N)cc2)cc(C)c1Oc1ccnc(S(=O)(=O)CC(=O)Nc2ccc(Cl)cc2)n1 | MTT | 7.41 µM
CCc1c(Cc2ccccc2C)n(COCC#Cc2ccc(N)cc2)c(=O)[nH]c1=O | MTT | 39 µM
C=C(C)COCn1c(Cc2ccccc2)c(CF)c(=O)[nH]c1=O | MTT | >100 µM
O=C(COc1cccnc1-c1cccc2ccccc12)Nc1ccccc1 | MTT / absorbance | 20.2 µM
CCCC(CCC)C(=O)N1C[C@@H](O)[C@@H](Cc2ccccc2)N(Cc2ccc(O)cc2)C(=O)N1Cc1ccc(O)cc1 |  | 16.6 µM
O=[N+]([O-])c1ccc(-c2csc(N/N=C/c3ccccn3)n2)cc1 | MTT | 17.3 µM
CC(=O)N1C[C@@H](O)[C@@H](Cc2ccccc2)N(Cc2ccc(O)cc2)C(=O)N1Cc1ccc(O)cc1 |  | 100 µM
CCOC(=O)c1cccn1S(=O)(=O)c1cc(Cl)ccc1NC(=O)COC |  | 136.7 µM
COc1cccc(Cn2c(-c3ccccc3F)nc3c(OC)cccc32)c1 |  | 6.8 µg/mL
COc1cc(/C=C/c2nc(NC(=O)Nc3ccc([N+](=O)[O-])cc3)c3ccccc3n2)cc(OC)c1OC | MTT | 1.72 µg/mL
CCc1c(Cc2cc(C)cc(C)c2)n(Cc2ccc(I)cc2)c(=O)[nH]c1=O | MTT | 43 µM
N#Cc1ccc(-c2csc(N/N=C/c3ccncc3)n2)cc1 | MTT | 53.1 µM
CCOC(=O)CNc1nc(NC(=O)Nc2ccc(C)cc2)nc(Oc2cc(=O)oc3ccccc23)n1 | MTT | 11.27 µg/mL

Repeating the final 4 entries:

SMILES	read by	result
COc1cc(/C=C/c2nc(NC(=O)Nc3ccc([N+](=O)[O-])cc3)c3ccccc3n2)cc(OC)c1OC	MTT	1.72 µg/mL
CCc1c(Cc2cc(C)cc(C)c2)n(Cc2ccc(I)cc2)c(=O)[nH]c1=O	MTT	43 µM
N#Cc1ccc(-c2csc(N/N=C/c3ccncc3)n2)cc1	MTT	53.1 µM
CCOC(=O)CNc1nc(NC(=O)Nc2ccc(C)cc2)nc(Oc2cc(=O)oc3ccccc23)n1	MTT	11.27 µg/mL

CCn: concentration that lowers growth or viability of the cells by n%. Lines come from different laboratories, so protocols vary.